Data as given in PubChem BioAssay AID1224833 (University of Georgia, 2016).

Aim: 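Host factors restraining rotavirus as candidate antiviral genes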 (primary screen)
System: monkey MA104 kidney cells
Reagent: siRNA pool against human genes, 50 nM
Time to read-out: 48 h knock-down before infection; read 24 h after infection
Conditions: infection with rotavirus strain RV3 two days after transfection; infectious dose for this stage not given
Detection: 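Rotavirus antigen per well by fluorescent immunoassay, normalised to non-targeting control wells on each plate and given as a standard z-score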
Direction: z-score vs non-targeting control: higher = more rotavirus replication than with non-targeting control
Call rule: In these data the active calls have z-score vs non-targeting control at about -1 or lower, or at about 1 or higher
Calls: active = z-score beyond 1 either way; inactive = z-score within 1 of zero
The deposit covers about 12,000 reagents; shown is a part drawn at random. Of all reagents, about 5,600 (46%) are marked active. 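Active calls cover z-scores past 1 in both directions, so they include lowered as well as raised rotavirus replication.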

The opening 9 records as a preview:
gene knocked down,z-score vs non-targeting control,outcome
OR10Z1 (olfactory receptor family 10 subfamily Z member 1),0.599,inactive
XPO6 (exportin 6),-1.15,active
MOSPD1 (motile sperm domain containing 1),-0.296,inactive
TPM2 (tropomyosin 2),-2.95,active
IL36RN (interleukin 36 receptor antagonist),0.912,inactive
BICRA,-0.573,inactive
MLYCD (malonyl-CoA decarboxylase),0.887,inactive
CEP152 (centrosomal protein 152),1.49,active
MANF (mesencephalic astrocyte derived neurotrophic factor),0.407,inactive

The listing, from the start:
gene knocked down,z-score vs non-targeting control,outcome
OR10Z1 (olfactory receptor family 10 subfamily Z member 1),0.599,inactive
XPO6 (exportin 6),-1.15,active
MOSPD1 (motile sperm domain containing 1),-0.296,inactive
TPM2 (tropomyosin 2),-2.95,active
IL36RN (interleukin 36 receptor antagonist),0.912,inactive
BICRA,-0.573,inactive
MLYCD (malonyl-CoA decarboxylase),0.887,inactive
CEP152 (centrosomal protein 152),1.49,active
MANF (mesencephalic astrocyte derived neurotrophic factor),0.407,inactive
BTN2A1 (butyrophilin subfamily 2 member A1),-1.33,active
TMEM164 (transmembrane protein 164),-0.688,inactive
TAL2 (TAL bHLH transcription factor 2),1.12,active
"B3GALT2 (beta-1,3-galactosyltransferase 2)",2.08,active
NDUFB2 (NADH:ubiquinone oxidoreductase subunit B2),3.53,active
CRMP1 (collapsin response mediator protein 1),1.46,active
OR10A7 (olfactory receptor family 10 subfamily A member 7),0.671,inactive
ADRA2B (adrenoceptor alpha 2B),-0.567,inactive
ATF6B (activating transcription factor 6 beta),-0.977,inactive
ACTR6 (actin related protein 6),-1.39,active
MTCH2,-2.02,active
MRPL39 (mitochondrial ribosomal protein L39),0.562,inactive
BTF3 (basic transcription factor 3),1.5,active
SPOCK1,-1.89,active
NLRC4 (NLR family CARD domain containing 4),0.573,inactive
SMNDC1 (survival motor neuron domain containing 1),-1.56,active
FAU (FAU ubiquitin like and ribosomal protein S30 fusion),-0.921,inactive
PRKRA,0.195,inactive
BAD (BCL2 associated agonist of cell death),-1.2,active
ZNF503 (zinc finger protein 503),0.816,inactive
ANKRD44 (ankyrin repeat domain 44),1.27,active
HNRNPUL1 (heterogeneous nuclear ribonucleoprotein U like 1),-0.278,inactive
OR2L2 (olfactory receptor family 2 subfamily L member 2),2.43,active
DNAH11 (dynein axonemal heavy chain 11),-0.924,inactive
HEXIM1 (HEXIM P-TEFb complex subunit 1),-1.86,active
INSIG1 (insulin induced gene 1),-0.86,inactive
TSGA13 (testis specific 13),-1.37,active
IFRD1 (interferon related developmental regulator 1),-0.763,inactive
CDH2 (cadherin 2),-1.24,active
USP33 (ubiquitin specific peptidase 33),-0.89,inactive
KIAA0753,-0.403,inactive
VN1R5 (vomeronasal 1 receptor 5 (gene/pseudogene)),-0.971,inactive
CRCT1 (cysteine rich C-terminal 1),0.251,inactive
STX12 (syntaxin 12),0.548,inactive
C1orf35 (chromosome 1 open reading frame 35),-0.746,inactive
NUP37 (nucleoporin 37),-0.696,inactive
INTS2 (integrator complex subunit 2),0.954,inactive
SLC2A2,0.719,inactive
GNLY (granulysin),-0.546,inactive
APH1A (aph-1A gamma-secretase subunit),-0.463,inactive
OR51V1 (olfactory receptor family 51 subfamily V member 1),0.606,inactive
RBMX (RNA binding motif protein X-linked),-0.477,inactive
TPST2 (tyrosylprotein sulfotransferase 2),-0.584,inactive
HS1BP3 (HCLS1 binding protein 3),1.51,active
EMC8 (ER membrane protein complex subunit 8),-0.979,inactive
PTCD2 (pentatricopeptide repeat domain 2),-2.38,active
SUCLA2 (succinate-CoA ligase ADP-forming subunit beta),-0.832,inactive
ZNF587 (zinc finger protein 587),0.782,inactive
OR10P1 (olfactory receptor family 10 subfamily P member 1),-1.05,active
SNAI3 (snail family transcriptional repressor 3),-1.62,active
CLEC16A (C-type lectin domain containing 16A),0.254,inactive
OPN5 (opsin 5),-0.941,inactive
SLC35G2,-2.63,active
NCOA6 (nuclear receptor coactivator 6),-1.16,active
FNDC5 (fibronectin type III domain containing 5),0.988,inactive
POPDC1 (popeye domain cAMP effector 1),0.712,inactive
TDRD5 (tudor domain containing 5),-1.41,active
CLVS1 (clavesin 1),-1.81,active
FRAS1 (Fraser extracellular matrix complex subunit 1),-0.721,inactive
PER2 (period circadian regulator 2),0.96,inactive
PPIL1 (peptidylprolyl isomerase like 1),-0.674,inactive
LACTB (lactamase beta),-0.295,inactive
SLC1A3,-1.59,active
CTRL (chymotrypsin like),1.76,active
CCDC158 (coiled-coil domain containing 158),-1.17,active
ALYREF (Aly/REF export factor),0.451,inactive
GNAI2 (G protein subunit alpha i2),0.862,inactive
TCF20 (transcription factor 20),-0.673,inactive
ATRAID (all-trans retinoic acid induced differentiation factor),1.31,active
ZNF177 (zinc finger protein 177),0.169,inactive
ARHGAP26 (Rho GTPase activating protein 26),-0.252,inactive
"HRK (harakiri, BCL2 interacting protein)",0.813,inactive
HRG (histidine rich glycoprotein),-0.128,inactive
HSPA2 (heat shock protein family A (Hsp70) member 2),-2.16,active
CD248 (CD248 molecule),-1.47,active
DELEC1 (deleted in esophageal cancer 1),-1.05,active
FGF11 (fibroblast growth factor 11),2.62,active
KRT40 (keratin 40),-1.32,active
CIDEC (cell death inducing DFFA like effector c),1.3,active
AMTN (amelotin),1.02,active
VCAM1 (vascular cell adhesion molecule 1),-0.0201,inactive
IFNK (interferon kappa),0.257,inactive
GTF3C4 (general transcription factor IIIC subunit 4),-1.27,active
OR4N5 (olfactory receptor family 4 subfamily N member 5),-1.12,active
IL1B (interleukin 1 beta),-2.05,active
ZMYM1 (zinc finger MYM-type containing 1),-0.53,inactive
DVL3 (dishevelled segment polarity protein 3),-3.11,active
MLNR (motilin receptor),-0.688,inactive
PAXIP1 (PAX interacting protein 1),0.297,inactive
"NAA20 (N-alpha-acetyltransferase 20, NatB catalytic subunit)",1.81,active
CA11 (carbonic anhydrase 11 (inactive)),-0.677,inactive
SLC35D2,0.303,inactive
GPR19 (G protein-coupled receptor 19),-1.28,active
TMCC3 (transmembrane and coiled-coil domain family 3),0.76,inactive
ABCC4 (ATP binding cassette subfamily C member 4 (PEL blood group)),0.885,inactive
NMRK2 (nicotinamide riboside kinase 2),-0.64,inactive
MGA (MAX dimerization protein MGA),-0.7,inactive
CUZD1 (CUB and zona pellucida like domains 1),-1.28,active
XPO7 (exportin 7),1.06,active
TBC1D32 (TBC1 domain family member 32),-0.0321,inactive
JOSD2 (Josephin domain containing 2),2.3,active
